The results in this text go back to patent US20090209606A1 (priority 2004, published 2009).

Where two headings read alike, the source gives them in different places.

Data set [1] concerns Ape-1 base excision repair enzyme. The data set can be described thus: In vitro cell based Ape-1 assay (MTT cytotoxicity with or without methoxyamine). Conditions: 6 mM methoxyamine, 72 hrs.
Data set [2] has as its system SU-DHL-1 cells. The experiment in a line: MTT cytotoxicity assay, cell viability after three days exposure. Format: cell-based. (Tetrazolium dyes change colour on reduction, which living cells bring about.)
For data set [3], the system named is alkylguanyl transferase (AGT) in SU-DHL-1 cells. The settings on record: 50 μM O6-benzylguanine, 72 hrs.
Data set [4] relates to SU-DHL-1 cells. The experiment in a line: Western blot / immunoblot of apoptotic proteins. The data set is classed as cell-based. Conditions: SU-DHL-1, 20 hours, equitoxic concentrations. (In general: In western blotting, separated proteins are transferred to a membrane and probed.)
A further data set concerns PARP in SU-DHL-1 cells. The experiment in a line: PARP cleavage after brief exposure and drug washout. The settings on record: 30 minutes exposure, further 8 hours, equitoxic concentrations. The data set is classed as cell-based.
Data set [5] has as its system SU-DHL-1 cells. The experiment in a line: Quantitative PCR (Q-PCR) of transcripts in drug-treated cells. The data set is classed as cell-based.
Where [6] appears, read: SU-DHL-1, equitoxic concentrations.

As a reminder, the IC50 is the point on the concentration scale where inhibition reaches its midpoint. As to `NP(=O)(O)N(CCCl)CCCl`, the “change of IC50 with methoxyamine addition” value in data set [1] is “only changed slightly”. Also, the half-inhibitory concentration (IC50) with SU-DHL-1 cells [2] (read-out: Ave IC50, SU-DHL-1, three days exposure) came to 21.3 µM. In addition, the IC90 in the data set on SU-DHL-1 cells [2] (read-out: Ave IC90, SU-DHL-1, three days exposure) came to 33 µM. Besides, the IC90 with SU-DHL-1 cells [2] (read-out: IC90 concentration, SU-DHL-1, concentration used for gene expression profiling) was determined as 50 µM. Also, the “effect of O6-benzylguanine on cytotoxic potency” value in data set [3] is on record as “significantly sensitizes”. For the same compound, the PARP protein expression result with SU-DHL-1 cells [4] was “no changes”. Moreover, the PARP cleavage entry in the data set on PARP in SU-DHL-1 cells is on record as “No PARP cleavage”. Also, the “induction of p21 and NOXA mRNA” value in the data set on SU-DHL-1 cells [5] (SU-DHL-1, 8 hours, equitoxic concentrations) is given as “much lower extent”. Besides, in the data set on SU-DHL-1 cells [5] (setting [6]), the “Fen1 mRNA regulation” value is recorded as “upregulated this gene to the same level”; the “down-regulation of mRNA expression of PLK-1, Aurora Kinases A and B, cyclin B1” value is “minor effect”; the “up-regulation of Exo1 expression” value is on record as 1.5 fold.
